The values that follow come from PMC9161444 (Langmuir, 2022).

Values joined by “and” are separate entries in the source; they are usually repeats but may differ in a detail not shown here. Equal values may be shown once.

The nature of series [1]: Selective index and averaged ratios from MIC, EC50 and CAC. The note with it: SI = sum of EC50 (HDFa, NIH/3T3, hRBC) / sum of MIC (E. coli, S. aureus, C. albicans).
A short description of series [2]: Lipid monolayer model, surface pressure change (Langmuir trough). Particulars: spread between DPPG and DPPC monolayer interactions.

`CCCCCCCCCCCCCC[N+](C)(C)C.[Br-]` [C14TAB, tetradecyltrimethylammonium bromide]: the selective index in series [1] is listed as 0.9 ± 0.7. The “δ[Δπ] = ΔπDPPG – ΔπDPPC” value in series [2] is 5 mN/m and 6 ± 3 mN/m.
